# In patent US7030150B2, “Benzimidazole compounds and antiviral uses thereof” (Trimeris, Inc., priority 2001, dated 2006):
# System: RSV
# Assay: RSV plaque reduction (PRA) / syncytia formation antiviral assay in Hep2 cells
# Type: cell-based, Respiratory Syncytial Virus
# Conditions: ratio CC50/IC50, Tables 1-7
row,SMILES,Selective Index
1,CN(Cc1nc2ccccc2n1Cc1nc2ccccc2[nH]1)CC(O)c1ccc(O)cc1 (stereo not drawn) [compound 97],592.3
2,CN(CCc1ccccn1)Cc1nc2ccccc2n1Cc1nc2ccccc2[nH]1 [compound 98],333.3
3,CCN(Cc1ccncc1)Cc1nc2ccccc2n1Cc1nc2ccccc2[nH]1 [compound 99],14.5
4,CCCCN(CCCC)CCCNCc1nc2ccccc2n1Cc1nc2ccccc2[nH]1 [compound 100],1.2
5,CN(C)CCCN(CCCN(C)C)Cc1nc2ccccc2n1Cc1nc2ccccc2[nH]1 [compound 101],125
6,N#CCCN(Cc1cccnc1)Cc1nc2ccccc2n1Cc1nc2ccccc2[nH]1 [compound 102],12.5
7,N=C(N)NCc1nc2ccccc2n1Cc1nc2ccccc2[nH]1 [compound 104],12.5
8,c1ccc2[nH]c(Cn3c(CNCCCn4ccnc4)nc4ccccc43)nc2c1 [compound 105],16.3
9,CCCCCCCCN(CCCCCCCC)Cc1nc2ccccc2n1Cc1nc2ccccc2[nH]1 [compound 106],9.3
10,CC(C)N(Cc1nc2ccccc2n1Cc1nc2ccccc2[nH]1)CC(O)c1ccc(O)c(O)c1 (stereo not drawn) [compound 107],1886.8
11,C[C@H](c1cccc2ccccc12)N(C)Cc1nc2ccccc2n1Cc1nc2ccccc2[nH]1 [compound 108],80
12,C[C@@H](c1cccc2ccccc12)N(C)Cc1nc2ccccc2n1Cc1nc2ccccc2[nH]1 [compound 109],43.5
13,COc1ccc(N(C)Cc2nc3ccccc3n2Cc2nc3ccccc3[nH]2)cc1 [compound 110],62.5
14,CN(Cc1nc2ccccc2n1Cc1nc2ccccc2[nH]1)C(c1ccccc1)c1ccccc1 [compound 111],12.5
15,CN1CCN(CCCNCc2nc3ccccc3n2Cc2nc3ccccc3[nH]2)CC1 [compound 112],143
16,c1cncc(CNCc2nc3ccccc3n2Cc2nc3ccccc3[nH]2)c1 [compound 113],588
17,Fc1ccc(F)c(CNCc2nc3ccccc3n2Cc2nc3ccccc3[nH]2)c1 [compound 114],667
18,FC(F)(F)Oc1ccc(CNCc2nc3ccccc3n2Cc2nc3ccccc3[nH]2)cc1 [compound 115],500
19,COCCCNCc1nc2ccccc2n1Cc1nc2ccccc2[nH]1 [compound 116],741
20,OCCNCc1nc2ccccc2n1Cc1nc2ccccc2[nH]1 [compound 117],769

row,SMILES,Selective Index
1,c1ccc(CCCCNCc2nc3ccccc3n2Cc2nc3ccccc3[nH]2)cc1 [compound 118],594
2,c1ccc2[nH]c(Cn3c(CNC4CC5CCC4C5)nc4ccccc43)nc2c1 (stereo not drawn) [compound 119],909
3,COc1ccc(CCNCc2nc3ccccc3n2Cc2nc3ccccc3[nH]2)cc1 [compound 120],161
4,COc1cc(CNCc2nc3ccccc3n2Cc2nc3ccccc3[nH]2)cc(OC)c1 [compound 122],111
5,CCNCc1nc2ccccc2n1Cc1nc2ccccc2[nH]1 [compound 123],3846
6,c1ccc2[nH]c(Cn3c(CNCCCN4CCOCC4)nc4ccccc43)nc2c1 [compound 124],250
7,c1ccc(CCNCc2nc3ccccc3n2Cc2nc3ccccc3[nH]2)nc1 [compound 125],323
8,Fc1ccc(CNCc2nc3ccccc3n2Cc2nc3ccccc3[nH]2)cc1 [compound 126],26
9,FC(F)(F)Oc1cccc(CNCc2nc3ccccc3n2Cc2nc3ccccc3[nH]2)c1 [compound 127],53
10,CCCNCc1nc2ccccc2n1Cc1nc2ccccc2[nH]1 [compound 128],833
11,CC(C)OCCCNCc1nc2ccccc2n1Cc1nc2ccccc2[nH]1 [compound 129],556
12,c1csc(CCNCc2nc3ccccc3n2Cc2nc3ccccc3[nH]2)c1 [compound 130],476
13,CC(CNCc1nc2ccccc2n1Cc1nc2ccccc2[nH]1)c1ccccc1 (stereo not drawn) [compound 131],278
14,c1ccc(C(CNCc2nc3ccccc3n2Cc2nc3ccccc3[nH]2)c2ccccc2)cc1 [compound 132],116
15,Cc1ccccc1CNCc1nc2ccccc2n1Cc1nc2ccccc2[nH]1 [compound 133],143
16,COc1cccc(CNCc2nc3ccccc3n2Cc2nc3ccccc3[nH]2)c1 [compound 134],244
17,COc1cccc(CCNCc2nc3ccccc3n2Cc2nc3ccccc3[nH]2)c1 [compound 135],244
18,c1ccc2[nH]c(Cn3c(CNCCCn4ccnc4)nc4ccccc43)nc2c1 [compound 136],132
19,c1ccc(CN2CCC(NCc3nc4ccccc4n3Cc3nc4ccccc4[nH]3)CC2)cc1 [compound 137],365
20,Clc1ccc(CNCc2nc3ccccc3n2Cc2nc3ccccc3[nH]2)cc1Cl [compound 138],7

row,SMILES,Selective Index
1,FC(F)(F)c1ccccc1CNCc1nc2ccccc2n1Cc1nc2ccccc2[nH]1 [compound 139],23
2,CCC(CC)NCc1nc2ccccc2n1Cc1nc2ccccc2[nH]1 [compound 140],132
3,O=C1CCCN1CCCNCc1nc2ccccc2n1Cc1nc2ccccc2[nH]1 [compound 141],58
4,c1csc(CNCc2nc3ccccc3n2Cc2nc3ccccc3[nH]2)c1 [compound 142],63
5,CC(CCc1ccccc1)NCc1nc2ccccc2n1Cc1nc2ccccc2[nH]1 (stereo not drawn) [compound 143],91
6,c1ccc2c(c1)CCC2NCc1nc2ccccc2n1Cc1nc2ccccc2[nH]1 (stereo not drawn) [compound 144],56
7,c1ccc(CNCc2nc3ccccc3n2Cc2nc3ccccc3[nH]2)cc1 [compound 145],51
8,COc1ccc(CNCc2nc3ccccc3n2Cc2nc3ccccc3[nH]2)cc1 [compound 146],45
9,c1ccc2[nH]c(Cn3c(CNCCCN4CCCC4)nc4ccccc43)nc2c1 [compound 147],345
10,CCN(CC)CCCC(C)NCc1nc2ccccc2n1Cc1nc2ccccc2[nH]1 (stereo not drawn) [compound 148],81
11,c1ccc(CN2CCC(NCc3nc4ccccc4n3Cc3nc4ccccc4[nH]3)C2)cc1 (stereo not drawn) [compound 149],42
12,Clc1ccccc1CNCc1nc2ccccc2n1Cc1nc2ccccc2[nH]1 [compound 150],77
13,FC(F)(F)c1ccc(CNCc2nc3ccccc3n2Cc2nc3ccccc3[nH]2)cc1 [compound 151],13
14,CC(C)NCc1nc2ccccc2n1Cc1nc2ccccc2[nH]1 [compound 152],2128
15,CC1CCCCC1NCc1nc2ccccc2n1Cc1nc2ccccc2[nH]1 (stereo not drawn) [compound 153],155
16,c1coc(CNCc2nc3ccccc3n2Cc2nc3ccccc3[nH]2)c1 [compound 154],50
17,c1ccc(CCNCc2nc3ccccc3n2Cc2nc3ccccc3[nH]2)cc1 [compound 155],217
18,c1ccc2c(c1)CCCC2NCc1nc2ccccc2n1Cc1nc2ccccc2[nH]1 (stereo not drawn) [compound 156],118
19,Clc1cccc(CNCc2nc3ccccc3n2Cc2nc3ccccc3[nH]2)c1 [compound 157],172
20,O=C1CCCN1CCCNCc1nc2ccccc2n1Cc1nc2ccccc2[nH]1 [compound 158],294
